Measured values from several laboratories, pooled; numbers as filed in NIAID ChemDB.

Shared fields: toxicity to cultured cells; cells: Huh7; endpoint: CC50

Neighbouring rows are from separate reports.

structure | method | value
O=C(c1nn2c(C(F)(F)F)cc(C3CC3)cc2c1Cl)N1CCC2(OCC3(CC3)CO2)C(O)C1 | ATP | >50 µM
CN1CCn2c(c(C3CCCCC3)c3sc(C(=O)O)cc32)-c2ccccc2C1 |  | >15.5 µM
CC1COC2(CCN(C(=O)c3nn4c(C(F)(F)F)cc(C5CC5)cc4c3Cl)CC2)OC1 | ATP | >50 µM
CN(C)Cc1c(C(=O)O)sc2c(C3CCCCC3)c(-c3ccc(Cl)cc3)n(CC(=O)N3CCOCC3)c12 |  | >47.5 µM
COc1c(C)c2c(c(O)c1CC(=O)O)C(=O)OC2 |  | 7 µM
O=C(O)c1c(-c2ccccc2Cl)nc(NCc2nc3ccccc3[nH]2)[nH]c1=O | MTT | 953 µM
O=C(CCCCCCC(=O)Nc1ccccc1)NO | MTS | 1.9 µM
CC(=O)CC[C@H]1C(=O)N[C@@H](C(C)C)C(=O)N[C@@H](Cc2cccc(O)c2)C(=O)N2CCCC(N2)C(=O)O[C@H](/C(C)=C/C=C/C(=O)N2CCCCO2)C/C=C/C=C/[C@H](O)[C@H](C)[C@H]1O | MTT | >200 µM
CCC[C@H](NC(=O)[C@@H]1C2CCCC2CN1C(=O)[C@@H](NC(=O)[C@@H](NC(=O)c1cnccn1)C1CCCCC1)C(C)(C)C)C(=O)C(=O)N[C@@H](C)c1ccc(C)cc1 |  | 63 µM
CCOC(=O)CCc1ccccc1O[P@@](=O)(N[C@@H](C)C(=O)OCC)OC[C@H]1O[C@@H](n2cnc3c(N)nc(N)nc32)[C@](C)(O)[C@@H]1O |  | >10 µM
NC(=O)c1ncn([C@@H]2O[C@H](CO)[C@@H](O)[C@H]2O)n1 |  | 110 µM
O=C(O)c1ccc2c(c1)nc(-c1ccc(OCc3cc(Cl)ccc3-c3cccnc3)cc1)n2C1CCCCC1 |  | >50 µM
COC(=O)c1cn([C@@H]2C[C@H](CO)C[C@H]2O)nn1 |  | >320 µM
CN(C)CCN1CCn2c(c(C3CCCCC3)c3sc(C(=O)O)cc32)-c2ccccc21 |  | >5.25 µM
C[C@@]1(O)[C@H](O)[C@@H](CO)O[C@H]1c1ccc2c(N)ncnn12 | MTT | >100 µM
CC(C)OC(=O)CCc1ccccc1OP(=O)(N[C@@H](C)C(=O)OC(C)C)OC[C@H]1O[C@@H](n2cnc3c(N)nc(N)nc32)[C@](C)(O)[C@@H]1O |  | >10 µM
C[C@@]1(O)[C@H](O)[C@@H](CO)O[C@H]1c1cnc2c(N)ncnn12 | MTT | 34 µM
CCOC(=O)[C@H](C)N[P@@](=O)(OC[C@H]1O[C@@H](n2cnc3c(N)nc(N)nc32)[C@](C)(O)[C@@H]1O)Oc1ccccc1CCC(=O)OC(C)C |  | >10 µM
O=C(O)c1c(-c2ccc(F)cc2)nc(SCc2nc3ccccc3[nH]2)[nH]c1=O | MTT | 545 µM
CC(C)N1CCC(N(C)C(=O)Cn2c(-c3ccccc3)c(C3CCCCC3)c3sc(C(=O)O)cc32)C1 |  | >13.75 µM
O=C(/C=C/c1ccc(C(F)(F)F)cc1F)NO | MTS | 12 µM
CCOC(=O)CCc1ccccc1O[P@](=O)(N[C@@H](C)C(=O)OCC)OC[C@H]1O[C@@H](n2cnc3c(N)nc(N)nc32)[C@](C)(O)[C@@H]1O |  | >10 µM
O=C(c1nn2c(C(F)(F)F)cc(C3CC3)cc2c1Cl)N1CCC2(CC1)OCCCO2 | ATP | >50 µM
CCCC(NC(=O)[C@@H]1C2CCCC2CN1C(=O)[C@@H](NC(=O)[C@@H](O)C(C)C)C(C)C)C(=O)C(=O)Nc1ccccc1 |  | >100 µM
N#Cc1c(-c2ccccc2Cl)nc(SCc2nc3ccccc3[nH]2)[nH]c1=O | MTT | 312 µM
CC(C)OC(=O)[C@H](C)N[P@](=O)(OC[C@H]1O[C@@](C#N)(c2ccc3c(N)ncnn23)[C@](C)(O)[C@@H]1OC(=O)C(C)C)Oc1ccccc1 | ATP | 67 µM
CN(C)C(=O)c1ccc(-c2ccc(Cl)cc2)c(COc2ccc(-c3nc4cc(C(=O)O)ccc4n3C3CCCCC3)cc2)c1 |  | 25 µM
CCCC(NC(=O)[C@@H]1C2CCCC2CN1C(=O)[C@@H](NC(=O)[C@H](CC1CCCCC1)NC(=O)c1cnccn1)C(C)(C)C)C(=O)C(=O)NC1CC1 |  | 86.5 µM
N#Cc1c(-c2ccc(F)cc2)nc(SCc2nc3ccccc3[nH]2)[nH]c1=O | MTT | 245 µM
O=C(c1nn2c(C(F)(F)F)cc(C3CC3)cc2c1Cl)N1CCC2(OCC3(CC3)CO2)C(=O)C1 | ATP | >50 µM
CCOC(=O)[C@H](C)N[P@](=O)(OC[C@H]1O[C@@H](n2cnc3c(N)nc(N)nc32)[C@](C)(O)[C@@H]1O)Oc1ccccc1CCC(=O)OC(C)C |  | >10 µM
NC(=O)c1nnn([C@@H]2C[C@H](CO)C[C@H]2O)c1N |  | >320 µM
CCC[C@H](NC(=O)[C@@H]1C2CCCC2CN1C(=O)[C@@H](NC(=O)[C@@H](NC(=O)c1cnccn1)C(C)CC)C(C)(C)C)C(=O)C(=O)NC1CC1 |  | >100 µM
CCOC(=O)CCc1ccccc1O[P@@](=O)(N[C@@H](C)C(=O)OC(C)C)OC[C@H]1O[C@@H](n2cnc3c(N)nc(N)nc32)[C@](C)(O)[C@@H]1O |  | >10 µM
O=C(O)c1c(-c2ccc(F)cc2)nc(NCc2nc3ccccc3[nH]2)[nH]c1=O | MTT | 647 µM
O=C(c1nn2c(C(F)(F)F)cc(C3CC3)cc2c1Cl)N1CCC2(OCC3(CC3)CO2)[C@@H](O)C1 | ATP | >50 µM
CC(C)(C)NC(=O)N[C@H](C(=O)N1C[C@H]2[C@@H]([C@H]1C(=O)NC(CC1CCC1)C(=O)C(N)=O)C2(C)C)C(C)(C)C | MTT | >70 µM
O=C(c1nn2c(C(F)(F)F)cc(C3CC3)cc2c1Cl)N1CCC2(CC1)OCC1(CCC1)CO2 | ATP | >50 µM
O=C(O)c1c(-c2ccccc2Cl)nc(SCc2nc3ccccc3[nH]2)[nH]c1=O | MTT | 978 µM
C[C@@]1(O)[C@H](O)[C@@H](CO)O[C@H]1c1cnn2c(N)ncnc12 | MTT | >100 µM
C[C@@]1(O)[C@H](O)[C@@H](CO)O[C@H]1n1cnc2c(N)ncnc21 | MTS | 66 µM

A second listing of 4 rows from above:

| structure | method | value |
|---|---|---|
| O=C(O)c1c(-c2ccccc2Cl)nc(NCc2nc3ccccc3[nH]2)[nH]c1=O | MTT | 953 µM |
| CCOC(=O)CCc1ccccc1O[P@](=O)(N[C@@H](C)C(=O)OCC)OC[C@H]1O[C@@H](n2cnc3c(N)nc(N)nc32)[C@](C)(O)[C@@H]1O |  | >10 µM |
| COC(=O)c1cn([C@@H]2C[C@H](CO)C[C@H]2O)nn1 |  | >320 µM |
| N#Cc1c(-c2ccccc2Cl)nc(SCc2nc3ccccc3[nH]2)[nH]c1=O | MTT | 312 µM |

Blank or dashed fields: not listed here. CCn: concentration that lowers growth or viability of the cells by n%.